Results of unrelated studies side by side (data: NIAID ChemDB).

All rows: whole-cell or culture tests; agent: Rhinovirus

ECn: concentration that inhibits the pathogen or its effect by n%.

structure	cell line	read-out	strain	read by	result
COc1nc2ccc(OCCC3CCN(c4ccc(C)nn4)CC3)cc2s1	MRC-5	EC50	Serotype 14	cytopathic effect	0.006 µg/mL
CSc1nsc(-c2ccc(OCCCCOc3ccc([N+](=O)[O-])cc3)cc2)c1C#N	HELA-OHIO	EC50	Serotype 15 (group B)	cytopathic effect	>0.5 µM
Cn1c2ccccc2c2nnc(NCC(C)(C)CO)nc21	WI-38	EC50	HGP	plaque count	4 µg/mL
CCOc1cnc2cc(OCCC3CCN(c4ccc(C)nn4)CC3)ccc2n1	MRC-5	EC50	Serotype 14	cytopathic effect	0.012 µg/mL
Cc1ccc(Cn2cnc3c(N(C)C)nc(C(F)(F)F)nc32)c(C)c1	M-HELA	EC50	Serotype 3	plaque count	>8 µM
CSc1nsc(-c2ccc(OCCc3ccccc3)cc2)c1C#N	HELA-OHIO	EC50	Serotype 70 (group A)	cytopathic effect	>20 µM
Cc1c(-c2ccccc2)n(-c2ccc(F)cc2)c2ccc(C(C)C)cc2c1=O	HELA-OHIO	EC50	33/1200	cytopathic effect	0.3 µg/mL
CSc1nsc(-c2ccc(OCCOc3ccc([N+](=O)[O-])cc3)cc2)c1C#N	HELA-OHIO	EC50	Serotype 29 (group B)	cytopathic effect	>2 µM
CN(C)c1nc(C(F)(F)F)nc2c1ncn2Cc1ccc(Cl)c(Cl)c1	M-HELA	EC50	Serotype 13	plaque count	>8 µM
Cc1cc(CCCCCOc2c(Cl)cc(C3=NCCO3)cc2Cl)on1	HeLa	EC50	TYPE 15	plaque count	0.13 µg/mL
CC(C)S(=O)(=O)c1ccc(Cc2ccc(Cl)c(Cl)c2)nc1	HeLa	EC50	TYPE 2	cytopathic effect	1.3 µg/mL
CC(=O)OCCCNc1nnc2c3ccccc3n(C)c2n1	WI-38	EC50	HGP	plaque count	220 µg/mL
CCOC(=O)c1ccc(OCCC2CCN(c3ccc(C)nn3)CC2)cc1	WI-38	EC50	Serotype 3	cytopathic effect	<0.1 µg/mL
Fc1cccc(Cn2cnc3c(Nc4cccc(F)c4)nc(C(F)(F)F)nc32)c1	M-HELA	EC50	Serotype 31	plaque count	5.4 µM
CS(=O)(=O)c1ccc(Cc2ccc(Br)cc2)nc1	HeLa	EC50	TYPE 64	cytopathic effect	0.6 µg/mL
Cc1c(-c2ccccc2)n(-c2cccc(F)c2)c2ccc(C(C)C)cc2c1=O	HELA-OHIO	EC50	31/41F	cytopathic effect	0.045 µg/mL
CC(=O)c1ccc(CCCOc2cc(C)c(-c3noc(C)n3)c(C)c2)nn1	HeLa	EC80	serotypes 3 4 5 9 16 18 38 66 75 67	cytopathic effect	0.67 µg/mL
Cc1ccc(Cc2ccc(S(C)(=O)=O)cn2)cc1	HeLa	EC50	TYPE 2	cytopathic effect	>10 µg/mL
CCOc1cc(CCCOc2c(C)cc(-c3noc(C)n3)cc2C)on1	HeLa	EC50	Serotype 22	cytopathic effect	0.018 µg/mL
COc1ccc(-c2snc(SC)c2C#N)cc1	HELA-OHIO	EC50	Serotype 14 (group A)	cytopathic effect	>12 µM
CCSc1nc2cc(OCCC3CCN(c4ccc(C)nn4)CC3)ccc2o1	MRC-5	EC50	Serotype 2	cytopathic effect	0.004 µg/mL
CCn1c2c(c(=O)c3cc(C(C)C)ccc31)Cc1ccccc1-2	HELA-OHIO	EC50	TYPE 2/ HGP	cytopathic effect	0.54 µg/mL
Cn1c2ccccc2c2nnc(NCC(O)CO)nc21	WI-38	EC50	1059	plaque count	20 µg/mL
Cc1cc(OCCCc2ccc(C(C)F)nn2)ccc1-c1noc(C(F)F)n1	HeLa	EC50	serotypes 3 4 5 9 16 18 38 66 75 67	cytopathic effect	0.05 µg/mL
CSc1nsc(-c2ccc(OCCCc3ccccc3)cc2)c1C#N	HELA-OHIO	EC50	Serotype 41 (group B)	cytopathic effect	>20 µM
Cn1c2ccccc2c2nnc(NCCC(C)(C)O)nc21	WI-38	EC50	HGP	plaque count	50 µg/mL
Cc1cc(CCCCCOc2cc(Cl)c(-c3nnco3)c(Cl)c2)on1		MIC80	Serotype 89		0.28 µg/mL
Cc1cc(OCCCc2ccc(Cl)nn2)cc(C)c1-c1noc(C(F)(F)F)n1	HeLa	EC50	serotypes 3 4 5 9 16 18 38 66 75 67	cytopathic effect	0.03 µg/mL
CSc1nsc(-c2ccc(OCCOc3ccccc3)cc2)c1C#N	HELA-OHIO	EC50	Serotype 63 (group B)	cytopathic effect	>20 µM
CSc1nc2ccc(OCCC3CCN(c4ccc(C)nn4)CC3)cc2o1	MRC-5	EC50	Serotype 1A	cytopathic effect	0.006 µg/mL
Cc1nc(-c2cc(C)c(OCCCc3cc(C4CC4)no3)c(C)c2)no1	HeLa	EC50	Serotype 22	cytopathic effect	0.011 µg/mL
CN(C)c1nc(C(F)(F)F)nc2c1ncn2Cc1ccc(S(C)(=O)=O)cc1	M-HELA	EC50	Serotype 30	plaque count	>8 µM
CCOC(=O)c1ccc(OCCC2CCN(c3ccc(C)nn3)CC2)cc1	KB	EC50	Baylor 3 (LDL receptor group 47)	neutral red	0.033 µM
Cc1cc(CCCCCOc2c(C)cc(-c3nnc(C)o3)cc2C)on1		MIC80	serotype 2 1A 1B 6 14 21 22 15 25 30 50 67 89 86 41		0.67 µg/mL
CCOC(=O)/C=C/[C@H](C[C@@H]1CCNC1=O)NC(=O)[C@@H](CC(=O)[C@@H](NC(=O)c1cc(C)on1)C(C)C)Cc1ccc(F)cc1	OHIO HELA-I	EC50	Isolate 22	cytopathic effect / visual reading	<0.01 µg/mL
OCCCNc1nnc2c3ccccc3n(CCc3ccccc3)c2n1	WI-38	EC50	HGP	plaque count	45 µg/mL
CCc1nc(-c2cc(C)c(OCCCc3cc(COC)no3)c(C)c2)no1	HeLa	EC50	Serotype 6	cytopathic effect	0.039 µg/mL
Cc1cc(CCCCCOc2cc(Cl)c(-c3nnc(C)o3)c(Cl)c2)on1		MIC80	Serotype 30		0.031 µg/mL
Cc1cc(Cn2cnc3c(N(C)C)nc(C(F)(F)F)nc32)ccc1Cl	M-HELA	EC50	Serotype 1B	plaque count	0.12 µM
CCCc1ccc(CCCOc2ccc(-c3noc(C4CC4)n3)c(C)c2)nn1	HeLa	EC50	serotypes 3 4 5 9 16 18 38 66 75 67	cytopathic effect	0.14 µg/mL
CN(C)c1nc(C(F)(F)F)nc2c1ncn2Cc1ccc([N+](=O)[O-])cc1	M-HELA	EC50	Serotype 3	plaque count	>8 µM
Cc1ccc(Cn2cnc3c(N(C)c4ccccc4)nc(C(F)(F)F)nc32)cc1	M-HELA	EC50	Serotype 5	plaque count	>8 µM
CCSc1nc2ccc(OCCC3CCN(c4ccc(C)nn4)CC3)cc2o1	MRC-5	EC50	Serotype 14	cytopathic effect	0.006 µg/mL
CS(=O)(=O)c1ccc(Oc2ccc(C(=O)c3ccccc3)cc2)nc1	HeLa	EC50	TYPE 44	cytopathic effect	>5 µg/mL
CS(=O)(=O)c1ccc(Cc2ccc(Cl)c(Cl)c2)nc1	HeLa	EC50	TYPE 39	cytopathic effect	5 µg/mL
CSc1nsc(-c2ccc(OC(C)(C)C)cc2)c1C#N	HELA-OHIO	EC50	Serotype 89 (group B)	cytopathic effect	2.5 µM
Cc1ccccc1Cn1cnc2c(N(C)C)nc(C(F)(F)F)nc21	M-HELA	EC50	Serotype 14	plaque count	>8 µM
Cn1c2ccccc2c2nnc(NCCCCO)nc21	WI-38	EC50	HGP	plaque count	10 µg/mL
CN(C)c1ccc(Cc2ccc(S(C)(=O)=O)cn2)cc1	HeLa	EC50	TYPE 1A	cytopathic effect	>10 µg/mL
CCOC(=O)c1ccc(OCCOc2ccc(-c3snc(SC)c3C#N)cc2)cc1	HELA-OHIO	EC50	Serotype 85 (group B)	cytopathic effect	>2 µM
CS(=O)(=O)c1ccc(NCc2ccc(Cl)c(Cl)c2)nc1	HeLa	EC50	TYPE 13	cytopathic effect	>10 µg/mL
CSc1nsc(-c2ccc(O)cc2)c1C#N	HELA-OHIO	EC50	Serotype 72 (group A)	cytopathic effect	>10 µM
CCS(=O)(=O)c1cccnc1Oc1ccc(C(=O)c2ccccc2)cc1	HeLa	EC50	TYPE 64	cytopathic effect	>10 µg/mL

A second listing of 6 rows from above:

CCSc1nc2cc(OCCC3CCN(c4ccc(C)nn4)CC3)ccc2o1 ; cell line: MRC-5 ; read-out: EC50 ; strain: Serotype 2 ; read by: cytopathic effect ; result: 0.004 µg/mL
Cc1cc(CCCCCOc2cc(Cl)c(-c3nnco3)c(Cl)c2)on1 ; read-out: MIC80 ; strain: Serotype 89 ; result: 0.28 µg/mL
CN(C)c1nc(C(F)(F)F)nc2c1ncn2Cc1ccc(S(C)(=O)=O)cc1 ; cell line: M-HELA ; read-out: EC50 ; strain: Serotype 30 ; read by: plaque count ; result: >8 µM
CSc1nsc(-c2ccc(OC(C)(C)C)cc2)c1C#N ; cell line: HELA-OHIO ; read-out: EC50 ; strain: Serotype 89 (group B) ; read by: cytopathic effect ; result: 2.5 µM
CCS(=O)(=O)c1cccnc1Oc1ccc(C(=O)c2ccccc2)cc1 ; cell line: HeLa ; read-out: EC50 ; strain: TYPE 64 ; read by: cytopathic effect ; result: >10 µg/mL
Cc1ccc(Cn2cnc3c(N(C)c4ccccc4)nc(C(F)(F)F)nc32)cc1 ; cell line: M-HELA ; read-out: EC50 ; strain: Serotype 5 ; read by: plaque count ; result: >8 µM

Blank or dashed fields: not listed here. A number after MIC or MFC names an inhibition level or a share of isolates. Neighbouring rows are from separate reports.